Measurements taken from patent publication US20170298100A1 (Cascadia Life Sciences LLC, priority 2014, published 2017).
Strings that start with PEPTIDE1 are HELM notation: dots part the residues, brackets hold end groups and non-standard residues.

Assay: general procedure: Fmoc solid-phase peptide synthesis; TentaGel R or S RAM resin (Rapp Polymer); PyBOP
Settings: whole synthesis, mass spectrometry coupled with analytical HPLC (LC/MSD Trap series 1100, Agilent; Phenomenex Gemini-NX column), chloride (counter-ion changed from TFA using acetonitrile with 0.05% HCl)

PEPTIDE1{[ac].R.Q.Y.S.V.T.D.A.L.E.D.V.S.T.S.P.Q.S.T.E.E.V.V.Q.S.F.L.I.S.Q.[am]}$$$$V2.0
final LC-MS purity: 80% purity
